PubChem BioAssay AID1621 (Southern Research Specialized Biocontainment Screening …, 2009)
The other results are listed elsewhere or left out. Measured potencies and affinities stand elsewhere. Some salts and complexes are drawn in separate pieces, as the source files them; their charges need not balance. Active and inactive are the calls of the source. The rule behind the calls is not given here.

Test: West Nile virus antiviral activity, cell-based, CPE readout (AID 1621)
Settings: West Nile virus-infected cells, at 10 µM, hits give high values

Structure (SMILES) | CPE inhibition
Cc1cc(C)cc(OP(C)(=O)Nc2cccc(C(F)(F)F)c2)c1 (stereo unspecified) | inactive: -1.58%
COc1ccc(OP(C)(=O)Nc2ccccc2Br)cc1 (stereo unspecified) | inactive: 0.14%
COc1ccccc1OP(C)(=O)Nc1ccc(C)c(C)c1 (stereo unspecified) | inactive: 0.5%
Cc1nc2ccc3ccccc3c2o1.O=[N+]([O-])c1cc([N+](=O)[O-])c(O)c([N+](=O)[O-])c1 | inactive: -0.22%
CP(=O)(OCCOc1ccccc1)OCCOc1ccccc1 | inactive: -0.4%
CP(=O)(Nc1ccc(Cl)cc1Cl)Oc1ccccc1 (stereo unspecified) | inactive: -0.19%
COc1ccccc1OP(C)(=O)Nc1ccc(Br)cc1 (stereo unspecified) | inactive: 0.86%
CN(C)CCOC(=O)C(O)(c1ccccc1)C1CCCC1 (stereo unspecified) | inactive: -0.37%
COc1ccc(OP(C)(=O)Nc2ccccn2)cc1 (stereo unspecified) | inactive: -0.29%
O=[N+]([O-])c1cc([N+](=O)[O-])c(Nc2ccccn2)c([N+](=O)[O-])c1 | inactive: 0.73%
Cc1c(NP(C)(=O)Oc2ccc(C(C)C)cc2)c(=O)n(-c2ccccc2)n1C (stereo unspecified) | inactive: -0.65%
CCc1ccc(OP(C)(=O)O)cc1 | inactive: 0.03%
CP(=O)(Nc1ccccn1)Oc1ccccc1 (stereo unspecified) | inactive: 0.47%
COc1ccccc1OP(C)(=O)Nc1ccc(C)cc1C (stereo unspecified) | inactive: -0.17%
CCN(CC)CC(O)COC(=O)C(O)(c1ccccc1)C1CCCCC1 (stereo unspecified) | inactive: -0.31%
COc1ccc(OP(C)(=O)Nc2ccc(Br)cc2)cc1 (stereo unspecified) | inactive: -0.35%
CP(=O)(Oc1ccccc1)N1CCOC1=O (stereo unspecified) | inactive: 0.23%
CCc1ccc(OP(C)(=O)Nc2cccnc2)cc1 (stereo unspecified) | inactive: -0.13%
COc1ccccc1OP(C)(=O)Nc1c(C)n(C)n(-c2ccccc2)c1=O (stereo unspecified) | inactive: -0.09%
O=C(OCCCN1CCCC1)C(O)(c1ccccc1)C1CCCCC1 (stereo unspecified) | inactive: 0.26%
CP(=O)(Nc1ccc(Cl)cc1)Oc1ccc(F)cc1 (stereo unspecified) | inactive: -0.43%

Structure (SMILES) | CPE inhibition
CC(C)(C)c1ccc(OP(C)(=O)O)cc1 | inactive: -0.5%
COc1ccccc1OP(C)(=O)Nc1ccccc1Br (stereo unspecified) | inactive: 0.12%
CP(=O)(OC12CC3CC(CC(C3)C1)C2)OC12CC3CC(CC(C3)C1)C2 | inactive: -0.2%
CCOC(=O)c1ccc(NP(C)(=O)Oc2ccc(Cl)cc2)cc1 (stereo unspecified) | inactive: 0.69%
COc1ccc(OP(C)(=O)Nc2cccc(Br)c2)cc1 (stereo unspecified) | inactive: -0.25%
COc1ccc(NP(C)(=O)Oc2ccccc2OC)cc1 (stereo unspecified) | inactive: 1.08%
CN(C)CCOC(=O)C(O)(c1ccccc1)C1CCCCC1 (stereo unspecified) | inactive: 0.03%
Cc1cc(-c2cccc3ccccc23)c(C)cn1.O=[N+]([O-])c1cc([N+](=O)[O-])c(O)c([N+](=O)[O-])c1 | inactive: -0.03%
O=[N+]([O-])c1ccc(OP2(=O)COCCO2)cc1 (stereo unspecified) | inactive: 0.39%
CP(=O)(Nc1ccc(SC(F)(F)F)cc1)Oc1ccc(F)cc1 (stereo unspecified) | inactive: -0.39%
CCOP(C)(=S)SCC(=O)NC(C)(CC)C(=O)O (stereo unspecified) | inactive: 0.13%
CP(=O)(Nc1ccc2c(c1)OCCO2)Oc1ccccc1 (stereo unspecified) | inactive: -0.06%
Cc1ccccc1NP(C)(=O)Nc1ccccc1C | inactive: 0.1%
CC(C)c1ccc(OP(C)(=O)Nc2ccc(SC(F)(F)F)cc2)cc1 (stereo unspecified) | inactive: -1.92%
CP(=O)(Nc1ccccc1F)Oc1ccccc1 (stereo unspecified) | inactive: 0.77%
O=C(OCCN1CCN(CCOCc2ccccc2)CC1)C(O)(c1ccccc1)c1ccccc1 | inactive: 0.25%
O=C(OC1CN2CCC1CC2)c1ccc([N+](=O)[O-])cc1 (stereo unspecified) | inactive: 0.42%
COc1ccc2c(c1O)-c1c(O)c(OC)cc3c1[C@H](C2)[N+](C)(C)CC3.O=[N+]([O-])c1cc([N+](=O)[O-])c([O-])c([N+](=O)[O-])c1[O-] | inactive: 0.07%
COc1ccc(OP(C)(=O)Nc2ccc(SC(F)(F)F)cc2)cc1 (stereo unspecified) | inactive: -1.29%
CCOC(=O)c1ccc(NP(C)(=O)Oc2ccc(F)cc2)cc1 (stereo unspecified) | inactive: -0.24%
CCN(CC)CCCOC(=O)C(O)(c1ccccc1)C1CCCCC1 (stereo unspecified) | inactive: 0.46%

Structure (SMILES) | CPE inhibition
CCCCCOc1ccc(NP(C)(=O)Oc2ccc(Cl)cc2Cl)cc1 (stereo unspecified) | inactive: -0.03%
O=[N+]([O-])c1cc([N+](=O)[O-])c(OC2CCCCC2O)c([N+](=O)[O-])c1 (stereo unspecified) | inactive: -0.33%
CP(=O)(Nc1ccccc1)Oc1ccc(F)cc1 (stereo unspecified) | inactive: -0.1%
O=C(O)c1cccc(Nc2c([N+](=O)[O-])cc([N+](=O)[O-])cc2[N+](=O)[O-])c1 | inactive: 0.39%
CC1=NCCc2c1[nH]c1ccccc21.O=[N+]([O-])c1cc([N+](=O)[O-])c(O)c([N+](=O)[O-])c1 | inactive: -0.52%
COc1ccccc1OP(C)(=O)Nc1cccc(Br)c1 (stereo unspecified) | inactive: 0.56%
Cc1cc(C)cc(OP(C)(=O)Nc2ccc(C)cc2C)c1 (stereo unspecified) | inactive: -0.47%
CCOC(=O)c1ccc(NP(C)(=O)Oc2cc(C)cc(C)c2)cc1 (stereo unspecified) | inactive: -0.3%
CP(=O)(Nc1cccc(Br)c1)Oc1ccccc1 (stereo unspecified) | inactive: -0.51%
Cc1cc(C)cc(OP(C)(=O)Nc2ccccn2)c1 (stereo unspecified) | inactive: -0.17%
Cc1ccc(C)c(NP(C)(=O)Oc2ccccc2)c1 (stereo unspecified) | inactive: 0.55%
O=[N+]([O-])c1cc([N+](=O)[O-])c(-n2nnc3ccccc32)c([N+](=O)[O-])c1 | inactive: 0.56%
Cc1nc2ccc3ccccc3c2s1.O=[N+]([O-])c1cc([N+](=O)[O-])c(O)c([N+](=O)[O-])c1 | inactive: 0.38%
O=[N+]([O-])c1cc([N+](=O)[O-])c(Nc2nnnn2CCO)c([N+](=O)[O-])c1 | inactive: 0.07%
CCOC(=O)C(CC)C1=NC(C)(C)Cc2ccccc21.O=[N+]([O-])c1cc([N+](=O)[O-])c(O)c([N+](=O)[O-])c1 (stereo unspecified) | inactive: -0.04%
CN1CCCCC1COC(=O)C1(O)c2ccccc2CCc2ccccc21 (stereo unspecified) | inactive: -0.45%
COc1ccccc1OP(C)(=O)Nc1c(C)cccc1C (stereo unspecified) | inactive: 0.26%
CP(=O)(Nc1ccc(SC(F)(F)F)cc1)Oc1ccccc1 (stereo unspecified) | inactive: -1.69%
CCCOc1ccc(NP(C)(=O)Oc2ccc(Cl)cc2)cc1 (stereo unspecified) | inactive: -0.87%
CP(=S)(Nn1cnnc1)Oc1ccccc1 (stereo unspecified) | inactive: 0.06%
COc1ccccc1OP(C)(=O)Nc1ccccc1 (stereo unspecified) | inactive: 0.19%

Structure (SMILES) | CPE inhibition
CP(=O)(Nc1ccccc1Br)Oc1ccccc1 (stereo unspecified) | inactive: -0.34%
CP(=O)(Nc1ccc(SC(F)(F)F)cc1)Oc1ccc(Cl)cc1 (stereo unspecified) | inactive: -0.13%
Cc1cccc(C)c1OP(C)(=O)Nc1ccc(SC(F)(F)F)cc1 (stereo unspecified) | inactive: -0.64%
CP(=O)(Oc1ccccc1)OC(c1ccccc1)C(F)(F)F (stereo unspecified) | inactive: -0.31%
CCc1ccc(OP(C)(=O)N2CCN(c3ccc([N+](=O)[O-])cc3)CC2)cc1 (stereo unspecified) | inactive: -0.65%
CP(=O)(NC(=O)Nc1ccccc1)Oc1ccccc1 (stereo unspecified) | inactive: 0.1%
Cc1cc(C)cc(OP(C)(=O)Nc2ccc(SC(F)(F)F)cc2)c1 (stereo unspecified) | inactive: -1.72%
CCOP(C)(=S)SCC(=O)NC(C)C(=O)O (stereo unspecified) | inactive: -0.25%
CCOC(=O)c1ccc(NP(C)(=O)Oc2ccc(OC)cc2)cc1 (stereo unspecified) | inactive: -0.5%
CP(=O)(Nc1ccccn1)Oc1ccc(Cl)cc1 (stereo unspecified) | inactive: 0.06%
CCN(CC)CCCOC(=O)C(O)(c1ccccc1)c1ccccc1 | inactive: 0.51%
CC(C)(C)c1ccc(OP(C)(=O)Nc2ccc(SC(F)(F)F)cc2)cc1 (stereo unspecified) | inactive: -0.07%
Cc1cccc(C)c1OP(C)(N)=O (stereo unspecified) | inactive: 1.21%
O=[N+]([O-])c1ccc2c(c1)C=Nc1ccccc1O2 | inactive: -1.61%
CCOC(=O)c1ccc(NP(C)(=O)Oc2ccccc2)cc1 (stereo unspecified) | inactive: -0.24%
COc1ccccc1OP(C)(=O)Nc1ccc(C)cc1 (stereo unspecified) | inactive: 0.24%
COc1ccccc1OP(C)(=O)Nc1cc(Cl)ccc1C (stereo unspecified) | inactive: -0.95%
Cc1cc(C)cc(OP(C)(N)=O)c1 (stereo unspecified) | inactive: 0.99%
